Literature values as cited in PubChem BioAssay AID977608.

Target: MDR HIV-1 protease variant, MDR 769 82T
Assay: protein-ligand inhibition affinities from structures – PDB-derived complexes (AID 977608)
Details: literature IC50, protein: MDR HIV-1 protease variant, chain 3SPK_A,3SPK_B, PDB entry 3SPK

Which IC50 does the source give for CCC[C@@]1(CCc2ccccc2)CC(=O)C([C@H](CC)c2cccc(NS(=O)(=O)c3ccc(C(F)(F)F)cn3)c2)C(=O)O1 (stereo partly specified) here?
The IC50 was 3.02 nM.
